Results reported in article PMC5934680, “A new class of antibacterials, the imidazopyrazinones, reveal structural transitions involved in DNA gyrase poisoning and mechanisms of resistance” (Nucleic Acids Research, 2018).

Key:
Type in all cases: biochemical
[1] = target: E. coli DNA gyrase GyrA mutant EcS83L (Escherichia coli, UniProt P0AES4+P0AES6, S83L); experiment: Supercoiling inhibition assay, GyrA EcS83L mutant gyrase
Description: (§1) Supercoiling reactions were carried out as described previously ([24]) with minor adjustments. A total of 500 ng of relaxed pBR322 plasmid was used as a substrate for each 30 μl reaction. The amount of DNA gyrase (A2B2) added was normalized by testing various dilutions of the stock (A2B2 containing 0.5 mg/ml of each subunit) without compound. The amount sufficient to supercoil 50% of the substrate was then used for the testing of compounds. See Supplementary Figure S1 for details. This ensured a limiting amount of enzyme for every mutant tested. The individual gyrase subunits were either prepared in the lab as described previously ([25]) or purchased from Inspiralis.
(§2) The activity of tricyclic and bicyclic IPYs (Figure 1) was tested in a supercoiling inhibition assay (Table 1) on wild-type (wt) E. coli DNA gyrase and GyrA mutants EcS83L (SaS84), EcD87A (SaE88) and EcD82N (SaD83). These residues are located in the ‘Quinolone-Resistance-Determining-Region’, frequently found mutated in resistant clinical isolates ([18],[35–38]). Based on the structures solved of FQs bound to DNA gyrase and topo IV, it has been established that both residues EcS83 and EcD87 are involved in a water–metal–ion bridge that is important for the stabilization of the ternary complex, explaining the resistance to FQs observed when these residues are mutated ([15–16],[23],[29],[39]).

[2] = target: E. coli DNA gyrase GyrA mutant EcD87A (Escherichia coli, UniProt P0AES4+P0AES6, D87A); experiment: Supercoiling inhibition assay, GyrA EcD87A mutant gyrase
Description: as §1, §2

[3] = target: E. coli DNA gyrase GyrA mutant EcD82N (Escherichia coli, UniProt P0AES4+P0AES6, D82N); experiment: Supercoiling inhibition assay, GyrA EcD82N mutant gyrase
Description: as §1, §2

Question: How did the IC50 [1] turn out when O=c1c2nccn2c2cc(F)c(-c3ccncc3)cc2n1C1CC1 [t3] was run?
Answer: Its IC50 is 12 µM.

Question: And the “Resistance of EcS83L mutant enzyme in supercoiling inhibition” value ([1]; EcS83L compared to wt)?
Answer: Its value is “partial resistance”.

Question: And the IC50 [2]?
Answer: The IC50 was 1.6 µM.

Question: And the “Resistance of EcD87A mutant enzyme in supercoiling inhibition” value ([2]; EcD87A compared to wt)?
Answer: The value was “low to no resistance”.

Question: What about the IC50 [3] of the same compound?
Answer: The IC50 was 4 to 20 µM.

Question: And the “Resistance of EcD82N mutant enzyme in supercoiling inhibition” value ([3]; EcD82N compared to wt)?
Answer: Its value is “high resistance”.
